Measurements published in patent publication EP4349860A1, “Anti-sars-cov-2 antibodies” (dated 2024).

Columns and labels:
[1] = molecular target: SARS-CoV-2 spike protein, WH1 variant, on pseudovirus (SARS-CoV-2.SctΔ19); experiment: cell-based or functional assay
[2] = molecular target: SARS-CoV-2 spike protein, D614G variant, on pseudovirus; experiment: cell-based or functional assay

Row | Substance | IC50 (µg/ml), pseudotyped virus neutralization [1] [µg/mL] | IC50 (µg/ml), pseudotyped virus neutralization [2] [µg/mL]
1 | S2E12 | 0.0005 | –
2 | S309 | 0.274 | 0.0802
